# Results as given in ChEMBL document CHEMBL1141032, “Design and synthesis of peptidomimetic severe acute respiratory syndrome chymotrypsin-like protease inhibitors” (J Med Chem, 2005).
# Molecular target: Replicase polyprotein 1a (Severe acute respiratory syndrome-related coronavirus, UniProt P0C6U8)
# Assay: Inhibitory concentration required for antiviral activity against SARS-CoV 3CLpro protease
smiles,measurement,value
CCOC(=O)/C=C/[C@H](C[C@@H]1CCNC1=O)NC(=O)[C@H](CC=C(C)C)CC(=O)[C@@H](NC(=O)c1cc(C)on1)C(C)C,IC50,70 µM
